# This is a selection; strong and weak results do not stand in their true shares. The source made the active and inactive calls. No stated cut-off is given here; in the data, active means inhibition above about 33%; inactive means the rest.
# Protein sequences, listed by entry. Tags and fused reporters are not part of them.
# UniProt P03206, whole entry: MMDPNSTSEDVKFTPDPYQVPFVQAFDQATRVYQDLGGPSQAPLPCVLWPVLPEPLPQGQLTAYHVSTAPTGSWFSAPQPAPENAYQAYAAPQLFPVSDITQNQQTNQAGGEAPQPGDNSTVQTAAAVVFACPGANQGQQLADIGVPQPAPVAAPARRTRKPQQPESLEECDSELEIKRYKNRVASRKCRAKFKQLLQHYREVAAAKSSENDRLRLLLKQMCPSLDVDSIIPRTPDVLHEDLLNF
# Target: Lytic switch protein BZLF1 (Epstein-Barr virus (strain B95-8)) (UniProt P03206)
# Assay: Zta-DNA interaction blockers, Epstein-Barr virus – biochemical, fluorescence polarization, single concentration, counter-screen for EBNA-1 inhibitor project, primary screen (AID 2234)
# Details: ZTA-DNA binding, at 11 µM, active compounds read high
row,SMILES,inhibition
1,O=[As](O)(c1ccccc1Br)c1ccccc1Br,inactive: -16.1%

# Reference: PubChem BioAssay AID2234 (The Scripps Research Institute Molecular Screening Center, 2010)
